# Data from ChEMBL document CHEMBL1687837, “Roles of residues Cys69, Asn104, Phe160, Gly232, Ser237, and Asp240 in extended-spectrum beta-lactamase Toho-1” (2011).
# Assays:
# Escherichia coli [1] = experiment: Activity of Escherichia coli beta-lactamase Toho-1 N104A mutant assessed as compound hydrolysis by spectrophotometry
# Escherichia coli [2] = experiment: Activity of Escherichia coli beta-lactamase Toho-1 D240A mutant assessed as compound hydrolysis by spectrophotometry
# Escherichia coli [3] = experiment: Activity of Escherichia coli beta-lactamase Toho-1 C69A mutant assessed as compound hydrolysis by spectrophotometry
# Escherichia coli [4] = experiment: Activity of Escherichia coli beta-lactamase Toho-1 G232A mutant assessed as compound hydrolysis by spectrophotometry
compound,measurement,setting,value
CC1(C)S[C@@H]2[C@H](NC(=O)Cc3ccccc3)C(=O)N2[C@H]1C(=O)O,kcat,Escherichia coli [1],31 s⁻¹
same,kcat,Escherichia coli [2],30 s⁻¹
same,kcat,Escherichia coli [3],54 s⁻¹
same,kcat,Escherichia coli [4],56 s⁻¹
